PubChem BioAssay AID504761, Drosophila RNAi Screening Center | 2011
The screen tested about 22,000 reagents; below is a random part of those that have a named target and a result. Of all reagents, 116 (0.52%) were called active. 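Calls depend on retest data that are not deposited; infection was ranked per plate without normalising between plates; the unit of the infection score is not given.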 Raw values vary from plate to plate and are shown uncorrected. The numbers tell different reagents against one gene apart. A plus sign joins genes that one reagent is predicted to hit. Not given: the amount of reagent, the time to read-out.

- Purpose: 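Fly genes whose silencing reduces dengue virus type 2 infection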 (primary screen)
- System: D.Mel-2 cells from Drosophila
- Knock-down reagent: long dsRNA against Drosophila genes
- Treatment: infection with dengue virus type 2; dose and infection time not stated
- Measurement: 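Cells stained for dengue envelope protein and imaged; percent of infected cells per well on duplicate plates, ranked by infection, with stained nuclei counted for cell number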
- Reading the numbers: infection score: higher = more virus-infected cells; cell count: higher = more cells in the well
- Active means: 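Very low infection ranking in both replicate wells (chance probability at most 0.065), then a retest showing infection dropped 1.5-fold or more at p below 0.05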
- Calls: active = confirmed: knock-down lowers infection; inactive = not picked or not confirmed

After knock-down of HIPP1 (HP1 and insulator partner protein 1) #1, the screen gave infection score, replicate 1 = 14.8; infection score, replicate 2 = 8.85; cell count, replicate 1 = 6277; cell count, replicate 2 = 6744; inactive. Knock-down of HIPP1 (HP1 and insulator partner protein 1) #2 came out at: infection score, replicate 1 = 14.2; infection score, replicate 2 = 6.17; cell count, replicate 1 = 6010; cell count, replicate 2 = 6776; inactive. Depletion of alien + CG17906 came out at: infection score, replicate 1 = 5.47; infection score, replicate 2 = 6.79; cell count, replicate 1 = 6031; cell count, replicate 2 = 6832; inactive. After knock-down of CG10934 the results were infection score, replicate 1 = 9.25; infection score, replicate 2 = 22.7; cell count, replicate 1 = 5264; cell count, replicate 2 = 4372; inactive. Depletion of spaw (spacewatch) resulted in: infection score, replicate 1 = 4.09; infection score, replicate 2 = 7.26; cell count, replicate 1 = 6622; cell count, replicate 2 = 6786; inactive. CG30495 #1 showed infection score, replicate 1 = 3.4; infection score, replicate 2 = 11.4; cell count, replicate 1 = 6524; cell count, replicate 2 = 3756; inactive.

With knock-down of CG30495 #2 the results were infection score, replicate 1 = 11.6; infection score, replicate 2 = 5.84; cell count, replicate 1 = 6411; cell count, replicate 2 = 6419; inactive. Knock-down of Fer1HCH (Ferritin 1 heavy chain homologue) gave: infection score, replicate 1 = 4.25; infection score, replicate 2 = 12.2; cell count, replicate 1 = 6195; cell count, replicate 2 = 6885; inactive. CG11164 scored infection score, replicate 1 = 5.83; infection score, replicate 2 = 7.08; cell count, replicate 1 = 6588; cell count, replicate 2 = 6720; inactive. For CG14636 #1, the values are infection score, replicate 1 = 6.89; infection score, replicate 2 = 7.54; cell count, replicate 1 = 6576; cell count, replicate 2 = 6617; inactive. CG14636 #2 scored cell count, replicate 1 = 396; cell count, replicate 2 = 427; inactive. For ATPsynB (ATP synthase, subunit B), the values are infection score, replicate 1 = 20.5; infection score, replicate 2 = 15.6; cell count, replicate 1 = 4513; cell count, replicate 2 = 4331; inactive.

Kmn1 (kinetochore Mis12-Ndc80 network component 1) #1 gave infection score, replicate 1 = 5.81; infection score, replicate 2 = 30.9; cell count, replicate 1 = 5857; cell count, replicate 2 = 5586; inactive. Silencing of Kmn1 (kinetochore Mis12-Ndc80 network component 1) #2 gave: infection score, replicate 1 = 23; infection score, replicate 2 = 6.06; cell count, replicate 1 = 5636; cell count, replicate 2 = 6273; inactive.
